From a compilation of properties of binary mixtures (doi:10.1021/acs.jpcc.9b05941)

Assay: xn = mol fraction of the nth substance listed
Conditions: 101 kPa

Structure (SMILES): CC[N+]1(C)CCCC1.O=S(=O)(F)[N-]S(=O)(=O)F + O=S(=O)(F)[N-]S(=O)(=O)F.[Na+]
- electrical conductivity (283 K, x2 = 0.3): 0.076 S/m
- mass density (283 K, x2 = 0.3): 1520 kg/m3
- electrical conductivity (283 K, x2 = 0.4): 0.036 S/m
- mass density (283 K, x2 = 0.4): 1570 kg/m3
- electrical conductivity (283 K, x2 = 0.5): 0.014 S/m
- mass density (283 K, x2 = 0.5): 1630 kg/m3
- electrical conductivity (283 K, x2 = 0.6): 0.004 S/m
- mass density (283 K, x2 = 0.6): 1710 kg/m3
- electrical conductivity (283 K, x2 = 0.7): 0.001 S/m
- mass density (283 K, x2 = 0.7): 1800 kg/m3
- electrical conductivity (293 K, x2 = 0.5): 0.033 S/m
- mass density (293 K, x2 = 0.5): 1630 kg/m3
- electrical conductivity (293 K, x2 = 0.6): 0.01 S/m
- mass density (293 K, x2 = 0.6): 1700 kg/m3
- electrical conductivity (293 K, x2 = 0.7): 0.004 S/m
- mass density (293 K, x2 = 0.7): 1790 kg/m3
- electrical conductivity (303 K, x2 = 0.3): 0.233 S/m
- mass density (303 K, x2 = 0.3): 1500 kg/m3
- viscosity (303 K, x2 = 0.3): 150 mPa·s
- electrical conductivity (303 K, x2 = 0.4): 0.123 S/m
- mass density (303 K, x2 = 0.4): 1550 kg/m3
- viscosity (303 K, x2 = 0.4): 346 mPa·s
- electrical conductivity (303 K, x2 = 0.5): 0.065 S/m
- mass density (303 K, x2 = 0.5): 1620 kg/m3
- viscosity (303 K, x2 = 0.5): 780 mPa·s
- electrical conductivity (303 K, x2 = 0.6): 0.024 S/m
- mass density (303 K, x2 = 0.6): 1690 kg/m3
- viscosity (303 K, x2 = 0.6): 2059 mPa·s
- electrical conductivity (303 K, x2 = 0.7): 0.011 S/m
- mass density (303 K, x2 = 0.7): 1780 kg/m3
- viscosity (303 K, x2 = 0.7): 5800 mPa·s
- electrical conductivity (313 K, x2 = 0.4): 0.201 S/m
- mass density (313 K, x2 = 0.4): 1540 kg/m3
- viscosity (313 K, x2 = 0.4): 205 mPa·s
- electrical conductivity (313 K, x2 = 0.5): 0.118 S/m
- mass density (313 K, x2 = 0.5): 1610 kg/m3
- viscosity (313 K, x2 = 0.5): 414 mPa·s
- electrical conductivity (313 K, x2 = 0.6): 0.05 S/m
- mass density (313 K, x2 = 0.6): 1680 kg/m3
- viscosity (313 K, x2 = 0.6): 960 mPa·s
- electrical conductivity (313 K, x2 = 0.7): 0.025 S/m
- mass density (313 K, x2 = 0.7): 1770 kg/m3
- viscosity (313 K, x2 = 0.7): 2300 mPa·s
- electrical conductivity (323 K, x2 = 0.3): 0.501 S/m
- mass density (323 K, x2 = 0.3): 1480 kg/m3
- viscosity (323 K, x2 = 0.3): 66.1 mPa·s
- electrical conductivity (323 K, x2 = 0.4): 0.308 S/m
- mass density (323 K, x2 = 0.4): 1530 kg/m3
- viscosity (323 K, x2 = 0.4): 130 mPa·s
- electrical conductivity (323 K, x2 = 0.5): 0.196 S/m
- mass density (323 K, x2 = 0.5): 1600 kg/m3
- viscosity (323 K, x2 = 0.5): 240 mPa·s
- electrical conductivity (323 K, x2 = 0.6): 0.093 S/m
- mass density (323 K, x2 = 0.6): 1670 kg/m3
- viscosity (323 K, x2 = 0.6): 490 mPa·s
- electrical conductivity (333 K, x2 = 0.4): 0.446 S/m
- mass density (333 K, x2 = 0.4): 1520 kg/m3
- viscosity (333 K, x2 = 0.4): 85.9 mPa·s
- electrical conductivity (333 K, x2 = 0.5): 0.306 S/m
- mass density (333 K, x2 = 0.5): 1590 kg/m3
- viscosity (333 K, x2 = 0.5): 153 mPa·s
- electrical conductivity (333 K, x2 = 0.6): 0.16 S/m
- mass density (333 K, x2 = 0.6): 1660 kg/m3
- viscosity (333 K, x2 = 0.6): 280 mPa·s
- electrical conductivity (333 K, x2 = 0.7): 0.089 S/m
- mass density (333 K, x2 = 0.7): 1750 kg/m3
- viscosity (333 K, x2 = 0.7): 530 mPa·s
- electrical conductivity (343 K, x2 = 0.4): 0.62 S/m
- mass density (343 K, x2 = 0.4): 1510 kg/m3
- viscosity (343 K, x2 = 0.4): 59.5 mPa·s
- electrical conductivity (343 K, x2 = 0.6): 0.253 S/m
- mass density (343 K, x2 = 0.6): 1650 kg/m3
- viscosity (343 K, x2 = 0.6): 171 mPa·s
- electrical conductivity (343 K, x2 = 0.7): 0.148 S/m
- mass density (343 K, x2 = 0.7): 1740 kg/m3
- viscosity (343 K, x2 = 0.7): 292 mPa·s
- electrical conductivity (353 K, x2 = 0.3): 1.13 S/m
- mass density (353 K, x2 = 0.3): 1460 kg/m3
- viscosity (353 K, x2 = 0.3): 26.2 mPa·s
- electrical conductivity (353 K, x2 = 0.5): 0.634 S/m
- mass density (353 K, x2 = 0.5): 1570 kg/m3
- viscosity (353 K, x2 = 0.5): 70.8 mPa·s
- electrical conductivity (353 K, x2 = 0.6): 0.378 S/m
- mass density (353 K, x2 = 0.6): 1640 kg/m3
- viscosity (353 K, x2 = 0.6): 113 mPa·s
- electrical conductivity (353 K, x2 = 0.7): 0.229 S/m
- mass density (353 K, x2 = 0.7): 1730 kg/m3
- viscosity (353 K, x2 = 0.7): 175 mPa·s
- electrical conductivity (363 K, x2 = 0.5): 0.856 S/m
- viscosity (363 K, x2 = 0.5): 51.7 mPa·s
- electrical conductivity (363 K, x2 = 0.6): 0.543 S/m
- viscosity (363 K, x2 = 0.6): 77.7 mPa·s
- electrical conductivity (363 K, x2 = 0.7): 0.335 S/m
- viscosity (363 K, x2 = 0.7): 112 mPa·s
- electrical conductivity (373 K, x2 = 0.3): 1.67 S/m
- viscosity (373 K, x2 = 0.3): 16.5 mPa·s
- electrical conductivity (373 K, x2 = 0.5): 1.12 S/m
- viscosity (373 K, x2 = 0.5): 39.2 mPa·s
- electrical conductivity (373 K, x2 = 0.7): 0.464 S/m
- viscosity (373 K, x2 = 0.7): 76.2 mPa·s
- electrical conductivity (383 K, x2 = 0.3): 2.02 S/m
- viscosity (383 K, x2 = 0.3): 13.4 mPa·s
- electrical conductivity (383 K, x2 = 0.4): 1.72 S/m
- viscosity (383 K, x2 = 0.4): 21.1 mPa·s
- electrical conductivity (383 K, x2 = 0.5): 1.42 S/m
- viscosity (383 K, x2 = 0.5): 30.4 mPa·s
- electrical conductivity (383 K, x2 = 0.6): 0.971 S/m
- viscosity (383 K, x2 = 0.6): 41.2 mPa·s
- electrical conductivity (383 K, x2 = 0.7): 0.621 S/m
- viscosity (383 K, x2 = 0.7): 53 mPa·s
- electrical conductivity (393 K, x2 = 0.3): 2.37 S/m
- viscosity (393 K, x2 = 0.3): 11.1 mPa·s
- electrical conductivity (393 K, x2 = 0.4): 2.04 S/m
- viscosity (393 K, x2 = 0.4): 17.8 mPa·s
- electrical conductivity (393 K, x2 = 0.5): 1.75 S/m
- viscosity (393 K, x2 = 0.5): 23.8 mPa·s
- electrical conductivity (393 K, x2 = 0.6): 1.25 S/m
- viscosity (393 K, x2 = 0.6): 31.6 mPa·s
- electrical conductivity (393 K, x2 = 0.7): 0.8 S/m
- viscosity (393 K, x2 = 0.7): 37.7 mPa·s
- viscosity (403 K, x2 = 0.3): 9.35 mPa·s
- electrical conductivity (403 K, x2 = 0.4): 2.54 S/m
- viscosity (403 K, x2 = 0.4): 14.8 mPa·s
- electrical conductivity (403 K, x2 = 0.6): 1.55 S/m
- viscosity (403 K, x2 = 0.6): 24.8 mPa·s
